Reference: the supplement of paper PMC9931576
Human monoclonal antibodies against the spike receptor-binding domain (heavy:light variable regions). IC50 against pseudoviruses bearing the spike of naturally observed variants; lower = stronger; >10 µg/ml means not reached at the top dose. No active / inactive call. The stated detection limit is 0.0005 µg/ml; values near or below 0.001 µg/ml lie at the floor of the assay.

B1: BD56-083 (protein)
chain 1: QVQMVQSGVEVKRPGASVKVSCRASGYTFTTYGVTWVRQAPGQGLEWMGWISAYNGNTKYAQKFQARVTMTTDSSTSTAHLEVRSLTSDDTAVYYCARWFGELSEPFDYWGQGTLVTVSS
chain 2: DIQLTQSPSSLSASVGDRVTITCRSSQSISRWVNWYQQKPGKAPKLLIYGASSLQSGVPSRFSGSGSGTDFTLTISSLQADDFATYFCQLSDNFVVTFGQGTRLEIK
B2: BD56-094 (protein)
chain 1: EVQLVESGGDLVKPGRSLRLSCTASGFTFGDNAVSWFRQAPGKGLEWVGFIRSKPYGGTTEYAASVKGRFTISRDDSKSIAYLQMNSLKTEDTAVYYCTRDRTTYYDVLTGYSIDHHGMDVWGQGTTVTVSS
chain 2: DIVMTQTPLSLSVTPGQPASISCKSSQSLLHIDGKTYLYWFLQKPGQPPQFLIYEVSNRFSGVPDRFSGSGSGTDFTLKISRVEAHDVGLYYCMQSKQPPHTFGQGTKLEIK
B3: BD56-090 (protein)
chain 1: EVQLVESGGGLVQPGRSLRLSCAASGFTFDDYAIHWVRQAPGKGLEWVSGVSWNSGIIGYADSVKGRFTISRDNAKNSLYLQMNSLRPEDTALYYCAKDMGGDYSFRKYNYGLDVWGQGTTVIVS
chain 2: QSVVTQPPSASGTPGQRVTISCSGSNSNIGTKAVNWYQQLPGTAPKLVIYSNNQRPSGVPDRFSGSKSGTSASLAISGLQSEDEADYYCAAWDDSLDGYVFGTGTKVTVL
B4: BD56-081 (protein)
chain 1: QITLKESGPTLVKPTQTLTLTCSFSGVSLSTRGMGVGWIRQPPGKALEWLALIYWDDDKRYSPSLKSRLSITKDTSKNQVVLTMTNVDRVDTATYYCAHWNYGDYEGSFDYWGQGTLVTVSS
chain 2: SYELTQPPSVSVSPGQTARITCSGDALPKQYAYWYQQKPGQAPLLVIYKDTERPSGIPERFSGSSSGPTVSLTISGVQAEDEADYYCQSADSSYVVFGGGTKLTVL
B5: BD56-077 (protein)
chain 1: QVQLVQSGAEVKKPGSAVKVSCKASGGTSSTSAISWVRQATGQGLEWMGRIIPILGIADYAQRFQGRVTITADKSTSTVYMDLSSLRSEDTAFYYCARDLVDYGSGSYPLYFDSWGQGTLVTVSS
chain 2: DIVMTQSPDSLAVSLGERATISCKSSQSLLYSANNKNYLAWYQQKPGQPPKLLIYWASTRESGVPDRFSGSGSGTDFTLTISSLQAEDVAVYYCQQHYNTITFGPGTKVNIK
B6: BD56-086 (protein)
chain 1: EVKLLESGGGLVQPGGSLRLSCAASGFTFSSYALNWVRQAPGKGLEWVSGIGGSGDLAFYADSVKGRFTISRDNSKNTLYLQMNNLRAEDTAVYYCAKDQGGVRYDLLDYWGQGTLVSVSS
chain 2: DVQMTQSPSSLSASVGDRVTISCRASQSISRYLNWYQQKPGKAPKLLIFGASSLQSGVPSRFSGSGSGTDFTLTISSLQPEDFATYYCQQSYITPPLTFGGGTKVEIK

Key:
Test in all cases: pseudovirus neutralization IC50; higher = weaker neutralization
[1] = target: SARS-CoV-2 Omicron BA.1 spike pseudovirus
Procedure: (§1)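 Single-round VSV luciferase pseudovirus mixed with antibody dilutions for 1 h and put on Huh-7 cells for about a day; IC50 from the dose curve.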

[2] = target: SARS-CoV-2 Omicron BA.2 spike pseudovirus
Procedure: as §1

[3] = target: SARS-CoV-2 Omicron BA.2.75 spike pseudovirus
Procedure: as §1

[4] = target: SARS-CoV-2 Omicron BA.5 spike pseudovirus
Procedure: as §1

[5] = target: SARS-CoV-2 Omicron BQ.1.1 spike pseudovirus
Procedure: as §1

[6] = target: SARS-CoV-2 Omicron XBB spike pseudovirus
Procedure: as §1

[7] = target: SARS-CoV-2 early D614G spike pseudovirus
Procedure: as §1

| Binder | pseudovirus neutralization IC50 [1] [µg/mL] | pseudovirus neutralization IC50 [2] [µg/mL] | pseudovirus neutralization IC50 [3] [µg/mL] | pseudovirus neutralization IC50 [4] [µg/mL] | pseudovirus neutralization IC50 [5] [µg/mL] | pseudovirus neutralization IC50 [6] [µg/mL] | pseudovirus neutralization IC50 [7] [µg/mL] |
| --- | --- | --- | --- | --- | --- | --- | --- |
| B1 | 0.657 | 0.563 | 0.554 | > 10 | > 10 | > 10 | 0.409 |
| B2 | > 10 | > 10 | > 10 | > 10 | > 10 | > 10 | > 10 |
| B3 | 0.0552 | 0.0799 | 0.0474 | > 10 | > 10 | 4.62 | 0.0294 |
| B4 | > 10 | > 10 | > 10 | > 10 | > 10 | > 10 | > 10 |
| B5 | 0.0199 | 0.0164 | 0.0174 | > 10 | > 10 | > 10 | 0.00656 |
| B6 | > 10 | > 10 | > 10 | > 10 | > 10 | > 10 | > 10 |
